US20260069689A1, “ANTI-SARS-COV-2-SPIKE GLYCOPROTEIN ANTIBODIES AND ANTIGEN-BINDING FRAGMENTS” (Regeneron, published 2026)

Key:
[1] = biological target: T1, SARS-COV-2 RBD extracellular domain expressed with a C-terminal mouse IgG2a Fc (SARS-CoV-2); assay: Biacore SPR, mAb captured on anti-hFc, 37 C
[2] = biological target: T1, SARS-COV-2 RBD extracellular domain …; assay: Biacore SPR, mAb captured on anti-hFc, 25 C

Binder	RBD mFc dimer bound at 50 nM [1]	RBD mFc dimer bound at 50 nM [2]
mAb14292 (antibody, V domains shown) VH: EVQLVESGGGLVQPGGSLRLSCVASGFAFSTYEMNWVRQAPGKGLEWVSYISSSGSTIYYADSVKGRLTISRDNVKNSLYLQMNSLRVEDTAIYYCARDAIRNNDILTDPATFDPWGQGTLVTVSS VL: not shown	97.9 RU	76.8 RU
mAb15159 (antibody, V domains shown) VH: EVQLVESGGGLVQPGGSLRLSCAASGITVSSNYMTWVRQAPGKGLEWVSLIYSGGSTFYADSVRGRFTISRDNSKNTLYLQMNSLRAEDTAVYYCARDLVVYGMDVWGQGTTVTVSS VL: DIQLTQSPSSLSASVGDRVTITCRASQGISSYLAWYQQKPGKAPKLLIYAASTLQSGVPSRFSGSGSGTDFTLTISSLQPEDFATYYCQHLNSDPHTFGQGTKLEIKR	315 RU	224 RU
mAb14281 (antibody, V domains shown) VH: QVQLVQSGADVKKPGASVKVSCKTSGYIFTGYYIHWVRQAPGQGLEWMGWINPNSGGTNSAQKFQGRVTMTRDTSISTVYMELSRLRSDDTAVYYCAKSNSFSVLDYNFDYWGQGTLVTVSS VL: SSELTQDPAVSVALGQTVRITCQGDSLRSYYASWYQQKPGQAPVLVIYDKNNRPSGIPDRFSGSSSGNTASLTITGAQAEDEADYYCNSRDSSRNHLVVFGGGTKLTVLG	370 RU	305 RU
mAb14286 (antibody, V domains shown) VH: QVQLVQSGAEVKKPGASVKVSCKASGYTFTDYFIHWVRQAPGQGLEWMGWINPTSGGTNYAQKFRGRVTMTRDTSISTAYVELSRLRSDDTALYYCARDLPFYSDTKQFDYWGQGTLVTVSS VL: QSALTQPASVSGYPGQSITISCTGTSSDVGGYNYVSWYQQHPGKAPKLMIFDVSNRPSGVSNRFSGSKSGNTASLTFSGLQAEDEADYYCSSYTSSSTLVFGGGTKLTVLG	337 RU	297 RU
mAb15160 (antibody, V domains shown) VH: EVQLVESGGGLVQPGGSLRLSCSASGFTFSRYAMYWVRQAPGKGLEYVSAISSDGGSTYDADSVKGRFTISRANSKNTLYLQMSSLRAEDTAVYYCVKGLRELLYYYYGMDVWGQGTTVTVSS VL: DIQMTQSPSSLSASVGDRVTITCRAGQSISSFLNWYQQKPGKAPKLLIYAASSLQSGVPSRFSGSGSGTDFTLTISSLQPEDFATYYCQQSYITPFTFGPGTKVDIKR	440 RU	268 RU
mAb14230 (antibody, V domains shown) VH: EVQLVESGGGLIQPGRSLRLSCAASGFTFDDYAMHWVRQAPGKGLEWVSGISWNSVSIDYADSVKGRFTISRDNAKNSLYLQMTSLTVEDTALYYCAKAFGYETLTGSDYFAYWGPGTLVTVSS VL: EIVLTQSPGTLSLSPGERATLSCRASQTVISTYLAWYQQKPGQSPRLLIYGASSRATGIPDRFSGSGSGTDFTLTISRLEPEDFAVYYCQQYGSSPQLTFGGGTKVEIKR	295 RU	241 RU
mAb14282 (antibody, V domains shown) VH: QVQLVQSGAEVKKPGASVKVSCKASGYIFTDHYMHWVRQAPGQGLEWMGWINPNSGATNYAQNFQGRVTMTRDTSIITVYMELSRLRSDDTAVYYCARDSSPYMIRYTMDVWGQGTTITVSS VL: QSALTQPASVSGSPGQSITISCTGTSSDVGSYNLVSWYQQHPGKAPKLMIYELTKRPSGVSNRFSGSKSGNTASLTISGLQAEDEADYYCSSYRGSVTDVVFGGGTKLTVLG	394 RU	326 RU
mAb14234 (antibody, V domains shown) VH: QVQLVESGGGVVQPGRSLRLSCAASGFTFSSYGIHWVRQAPGKGLEWVAIIWYDGSEKYYADSVKGRFTISRDNSKNTLFLQMNSLEAEDTAVYYCARGPDLLTGYYNYFYYGMDVWGQGTTVTVSS VL: QSVLTQPPSVSGAPGQRVTISCTGSSSNIGIGYDVHWYQQLPGTVPKLLIYGNTNRPSGVPDRFSGSKSGTSASLAITGLQAEDEADYYCQSYDSSLSSYVFGTGTKVTVLG	415 RU	329 RU
mAb15161 (antibody, V domains shown) VH: EVQLVESGGGLVQPGGSLRLSCAASGFTFSSYEMNWVRQAPGKGLEWVSYISSSGSILYYADSVKGRFTASRDNAKNSLYLQMNSLRAEDTGVYYCARREYQLLRPFEFWGQGTLVTVSS VL: not shown	352 RU	328 RU
mAb15156 (antibody, V domains shown) VH: QLQLQESGPGLVKSSETLSLTCTVSASITGSTYYWGWIRQPPGKGLEWIGSIYYSGTTYYKASLKSRVTISVDTSKNQFSLKLTSVTVADTAVYYCVSHLLGNYHKYGMDVWGQGTTVTVSS VL: QSVLTQPPSASGTPGQRVTISCSGSRSNIGINTVNWYQQFPGTALNLLIFSDNQRPSGVPDRFSGSKSGTSASLAISGLQSEDEADYYCAAWDDSLNGPDWVFGGGTKLTVLG	673 RU	493 RU
mAb14257 (antibody, V domains shown) VH: EVQLVESGGGLVQPGGSLRLSCAASGFTVSRSYMNWVRQAPGKGLEWVSVVFTGGTTKHTDSVKGRFTISRDNSMNTLYLQMNSLRPEDTAVYYCARVAIVETTGAFDIWGQGTMVTVSS VL: QSVLTQPPSVSGAPGQRVTISCTGTSSNIGADFDVHWYQQFPGTAPKLLIYGHTNRPSGIPDRFSGSKSGTSASLAITGLQAEDEADYYCQSYDSSLSGSVVFGGGTKLTVLG	482 RU	403 RU
mAb14255 (antibody, V domains shown) VH: QVQLQESGPGLVKPSETLSLTCTVSGGSISGYYWSWIRQPPGKGLDWIGYIYYRGNTNYNPSLKSRVTISVDTSNNQFSLKLSSVTAADTAVYYCARYGEGYGDASGYHFDYWGQGTLVTVSS VL: QSALTQPASVSGSPGQSITISCTGTSSDVGSYNLVSWYQQHPGKAPKLMIYEDSKRPSGVANPFSGSKSGNTASLTISGLQAEDEADYYCSSYAGSSTWVFGGGTKLTVLG	407 RU	341 RU
mAb14285 (antibody, V domains shown) VH: QVQLVQSGAEVKKPGASVKVSCKASGYTFTGYFIHWVRQAPGQGLEWMGWISPISGGTNYAQKFQGRVTVTRDTSITTAYMELSRLTSDDTAVYHCAREGGTWKGDFDYWGQGTLVTVSS VL: QSALTQPASVSGSPGQSITISCTGTSSDVESYNLVSWYQQHPGKAPKLMIYEGSKRPSGVSNRFSGSKSGNTASLTISGLQAEDEADYYCSSYAGSSTWVFGGGTKLTVLG	387 RU	319 RU
mAb15158 (antibody, V domains shown) VH: EVQLVESGGGLVQPGGSLRLSCAASGFSFSSNWMSWVRQAPGKGLEWVGNINQDGSEKYYVDSVEGRFTISRDNAKKSLYLQMNSLRAEDTAVYYCARDLGVLWFGDFVDWGQGALVTVSS VL: DIQMTQSPSSLSASVGDRVTITCRASQAISNSLAWYQQKPGKAPKLLLYAASTLESGVPSRFSGSGSGTDYTLTISSLQPEDFATYYCLQYYGSPRTFGQGTKVEIKR	279 RU	175 RU
mAb14315 (antibody, V domains shown) VH: QVQLVQSGAEVKKPGSSVKVSCKASGDTFSTYAINWVRQAPGQGLEWMGRFIHIFGTANYAQKFQGRVTITADESTSTAYMELRSLRSEDTAVYYCARDGVDYGDYRPDYWGQGTLVTVSS VL: EIVLTQSPGTLSLSPGERATLSCRASQSVSSNYLAWYQQKPGQAPRLLIYGASSRATGIPERFSGSGSGTDFTLTISRLEPEDFAVYYCQQYGSSLYTFGQGTKLEIKR	416 RU	304 RU
mAb14280 (antibody, V domains shown) VH: QVQLVQSGAEVKKPGASVRVSCKASGYTFTGNYIHWVRQAPGQGLEWMAWINPNSGGKNYAQKFQGRVTLTRDTSVNTAYMELSRLRSDDTAMYYCARDVNYNILTGPGGLWGQGTLVTVSS VL: QSALTQPPSASGSPGQSVTISCTGTSSDVGGYNFVSWYQQHPGKAPKLMIYEVSKRPSGVPDRFSGSKSGNTASLTVSGLQAEDEADYYCSSYAGSNNFVFGTGTKVTVLG	445 RU	358 RU
mAb15163 (antibody, V domains shown) VH: EVQLVETGGGLIQPGESLRLSCAASGFIVSTNYMNWVRQAPGKGLEWVSVIYRGGSTYYADSVKGRFTISRDNSKNTLFLQMNSLRAEDTAVYYCARGHEDFDYDTPASGAFDIWGQGTMVTVSS VL: QSALTQPPSASGSPGQSVTISCTGTSSDVGGHNYVSWYQQHPGKAPKVMIYEVSKRPSGVPDRFSGSKSGNTASLTVSGLQAEDEADYYCSSYAGSNKFVFGTGTKVTVLG	407 RU	164 RU
mAb15162 (antibody, V domains shown) VH: EVQLVETGGGLIQPGGSLRLSCAASEFIVSRNYMSWVRQAPGKGLEWVSLIYSGGSTYYADSVKGRFTISRDNSKNILYLQMNSLRAEDTAVYYCARDRGGISDYWGQGTLVTVSS VL: DIQMTQSPSSLSASVGDRVTITCQASQDINKYLNWFQQKPGKAPKLLIYDASNLETGVPSRFSGSGSGTDFTFTISSLQPEDIATYYCQQYDNLPRTFGQGTKLEIKR	323 RU	354 RU
mAb15157 (antibody, V domains shown) VH: EVQLVESGGALVQPGGSLRLSCAASGFPFTIYAMTWVRQAPGKGLEWVSVITGSGDSTYYADSVKGRFTISRDNSKNTLYLQMNSLRAEDTAVYYCVKTGEGFFYYYYGMDVWGQGTTVTVSS VL: QSVLTQPPSVSAAPGQKVTISCSGSSSNIGNSYISWYQQLPGTAPKLLIYVNNKRPSGIPDRFSGSKSGTSATLGITGLQTGDEADYYCGTWDSSLSAGVFGSGTKVTVLG	412 RU	294 RU
